“And” between values parts separate entries of the source, which are not always exact repeats. Identical values can stand only once.
How the values were obtained:
[1] = tested on: A 549; assay: Cell viability IC50 assay; conditions: read-out: PLTX IC50 at 72 h; A 549, Lung cancer
[2] = tested on: BT 20; assay: Cell viability IC50 assay; conditions: read-out: PLTX IC50 at 72 h; BT 20, Breast cancer
[3] = tested on: BXPC3; assay: Cell viability IC50 assay; conditions: read-out: PLTX IC50 at 72 h; BXPC3, Pancreatic cancer
[4] = tested on: DLD-1; assay: Cell viability IC50 assay; conditions: read-out: PLTX IC50 at 72 h; DLD-1, Colorectal carcinoma
[5] = tested on: H1299; assay: Cell viability IC50 assay; conditions: read-out: PLTX IC50 at 72 h; H1299, Metastatic Lung NSCLC
[6] = tested on: HCT-116; assay: Cell viability IC50 assay; conditions: read-out: PLTX IC50 at 72 h; HCT-116, Metastatic colon carcinoma
[7] = tested on: Karpas-299; assay: Cell viability IC50 assay; conditions: read-out: PLTX IC50 at 72 h; Karpas-299, Lymphoma
[8] = tested on: PC-3; assay: Cell viability IC50 assay; conditions: read-out: PLTX IC50 at 72 h; PC-3, Prostate cancer
[9] = tested on: U-87 MG; assay: Cell viability IC50 assay; conditions: read-out: PLTX IC50 at 72 h, Glioblastoma
[10] = tested on: glioblastoma patient tumors, grown as explants; assay: Explants of human glioblastoma biopsies; conditions: 1 pM for 3 days; D3/D0
[11] = tested on: chicken embryos; assay: In vivo toxicity of palytoxin on chicken embryos
[12] = tested on: human glioblastoma U-87 MG cells; assay: Mouse model of human glioblastoma grafted in nude mouse brain
[13] = tested on: A549 highly metastatic human lung tumor; assay: Chicken embryo CAM assay, secondary brain cancer, versus paclitaxel
[14] = Tolerance of PLTX in glioblastoma-bearing mice (clinical signs, CD45, blood, organs)

C=C(/C=C/CC(O)C(O)C(O)C/C=C/C=C/C(O)CC1OC(CC(O)C(O)CC2OC(C(O)C(O)CCC(O)/C=C/C(C)C(O)CC3(O)OC(CC(O)CCCCCCCC45CC(C)CC(C)(O4)C(CC(C)CCCCCC(O)C(O)C(O)C(O)C(O)C4OC(CC(O)C(O)/C(C)=C/C(O)CC(C)C(O)C(=O)N/C=C/C(=O)NCCCO)C(O)C(O)C4O)O5)C(O)C(O)C3O)CC(O)C2O)C(O)C(O)C1O)CCC(O)C(O)C(O)C(C)CC1OC(/C=C/C(O)C(O)CC2CC3CC(O2)C(CCC2OC(CN)CC2O)O3)C(O)C(O)C1O (stereo not drawn)
IC50 [1]: 1 to 10 pM
IC50 [2]: 1 to 10 pM
IC50 [3]: 1 to 10 pM
IC50 [4]: 1 to 10 pM
IC50 [5]: 1 to 10 pM
IC50 [6]: 1 to 10 pM
IC50 [7]: 1 to 10 pM
IC50 [8]: 1 to 10 pM
IC50 [9]: 1 to 10 pM
reduction of explant core size compared to control [10]: 14%
reduction of migration front compared to control [10]: about 60%
abnormalities among the 22 endpoints in the embryos and the CAM ([11]; 2 nM): no abnormalities
abnormalities in the embryos ([11]; 20 nM): no abnormalities
alteration of the CAM at the treatment site ([11]; 20 nM): observed in all eggs
Body abnormalities among live embryos ([11]; PLTX 2 nM): 0/17
Extra-emb abnormalities among live embryos ([11]; PLTX 2 nM): 0/17
Head abnormalities among live embryos ([11]; PLTX 2 nM): 0/17
Limbs abnormalities among live embryos ([11]; PLTX 2 nM): 0/17
Body abnormalities among live embryos ([11]; PLTX 20 nM): 0/13
Extra-emb abnormalities among live embryos ([11]; PLTX 20 nM): 13/13
Head abnormalities among live embryos ([11]; PLTX 20 nM): 0/13
Limbs abnormalities among live embryos ([11]; PLTX 20 nM): 0/13
Body abnormalities among live embryos ([11]; PLTX 200 nM): 0/1
Extra-emb abnormalities among live embryos ([11]; PLTX 200 nM): 1/1
Head abnormalities among live embryos ([11]; PLTX 200 nM): 0/1
Limbs abnormalities among live embryos ([11]; PLTX 200 nM): 0/1
% of animals with tumor formation ([12]; PLTX Intraperitoneal 25 ng/kg): 25%
Animals with tumor formation ([12]; PLTX Intraperitoneal 25 ng/kg): 1 out of 4 and 1/4
% of animals with tumor formation ([12]; PLTX intracerebral 0.5 ng): 80%
Animals with tumor formation ([12]; PLTX intracerebral 0.5 ng): 4 out of 5 and 4/5
apoptosis, caspase-3 positive cells in tumors ([12]; PLTX intracerebral group): 2.5±0.96%
differentiation, GFAP positive cells in tumors ([12]; PLTX intracerebral group): no GFAP Positive cells
proliferation, ki67 positive cells in tumors ([12]; PLTX intracerebral group): 52.5±2.5%
time to tumor development on average ([12]; PLTX intracerebral group): 44 days
proliferation rate, Ki67 positive cells in tumors ([12]; PLTX intraperitoneal group): 17.5±7.5%
Tumor weight ([13]; PLTX 1nM): 19.346 ± 1.143 mg
reduction of brain metastases amount compared to controls ([13]; PLTX 1nM): 78%
more efficient than paclitaxel on brain metastases amount ([13]; PLTX 1 nM versus paclitaxel 25 μM): 43%
Metastasis relative amount, in embryo brain ([13]; PLTX 1 nM, relative to DMSO): 0.222 ± 0.056
Metastasis relative amount, in low CAM ([13]; PLTX 1 nM, relative to DMSO): 0.059 ± 0.043
mice showing absolutely no clinical signs at the time of euthanasia ([14]; PLTX IP group, Day 57 post injection): 3 out of 4
tolerance of injection into the peritoneum ([14]; PLTX Intraperitoneal 25 ng/kg): well tolerated
CD45 immunostaining in the brain parenchyma around the tumor (inflammation) ([14]; PLTX intracerebral group): No staining
CD45 immunostaining in the brain parenchyma around the tumor (inflammation) ([14]; PLTX intraperitoneal group): No staining
effect on mice blood formulation (red blood cell count, hemoglobin, hematocrit, reticulocyte, platelet and white blood cell counts) ([14]; PLTX intraperitoneal injection): did not alter
